From patent publication US6624288B1 (priority 1997, dated 2003) come the findings set out here.

One series relates to fish (Gambusia affinis). Put plainly: Injection bioassay in fish. Conditions: 1 nmole per 100 mg body weight.
The test system of series [1] is blowfly (Sarcophaga) larvae. Nature of the series: Injection bioassay in blowfly larvae. The conditions noted are these: 1 nmole per 100 mg body weight.

Structures are written as SMILES.

In the case of `CC(C)C[C@H](NC(=O)[C@H](CC(C(=O)O)C(=O)O)NC(=O)[C@@H]1CSSC[C@@H]2NC(=O)[C@H](CC(C(=O)O)C(=O)O)NC(=O)[C@H](CO)NC(=O)[C@H](CC(N)=O)NC(=O)[C@H](C(C)C)NC(=O)[C@H]([C@@H](C)O)NC(=O)[C@@H]3CSSC[C@H](NC(=O)[C@H](CO)NC(=O)[C@H](CC(N)=O)NC(=O)[C@H](CO)NC(=O)[C@H](CSSC[C@H](NC(=O)[C@@H](N)CC(=O)O)C(=O)N[C@@H]([C@@H](C)O)C(=O)N[C@@H](CO)C(=O)N[C@@H](Cc4c[nH]c5ccccc45)C(=O)N[C@@H](Cc4ccccc4)C(=O)NCC(=O)N[C@@H](CCCNC(=N)N)C(=O)N3)NC2=O)C(=O)N[C@@H](CC(=O)O)C(=O)N[C@@H](CCC(N)=O)C(=O)N[C@@H]([C@@H](C)O)C(=O)N[C@@H](Cc2ccc(O)cc2)C(=O)N1)C(=O)N[C@@H](Cc1ccc(O)cc1)C(=O)N[C@@H](C)C(=O)N[C@@H](Cc1ccccc1)C(=O)N1C[C@H](O)C[C@H]1C(=O)N[C@@H](CO)C(=O)O`, in the series on fish (Gambusia affinis), the “toxic or other effects upon injection in Gambusia fish” value is reported as “No toxic or other effects”. Further, the “toxic or other effects upon injection in blowfly (Sarcophaga) larvae” value in series [1] is recorded as “No toxic or other effects”.
